Laboratory results from article PMC5336307.
Construct, isoform or probe ends are uncertain for at least one entry. At least one verdict was read from the data and is not stated in words by the source.

How the values were obtained:
Assay in all cases: ITC
p7NC = p7NC (UniProt P12493); conditions: ITC at 30 C in TBS with 1 mM TCEP (pH not stated); 8 uM (6-10) protein in cell, 40 uM (15-50) nucleic acid in syringe; one-site model; recombinant protein; protein details: C-terminal His
p15NC-SP2-p6 = p15NC-SP2-p6 (UniProt P12493); conditions: ITC at 30 C in TBS with 1 mM TCEP (pH not stated); 8 uM (6-10) protein in cell, 40 uM (15-50) nucleic acid in syringe; one-site model; recombinant protein; protein details: C-terminal His
Pr50GagΔp6 = Pr50GagΔp6 (UniProt P12493); conditions: ITC at 30 C in TBS with 1 mM TCEP (pH not stated); 8 uM (6-10) protein in cell, 40 uM (15-50) nucleic acid in syringe; one-site model; recombinant protein; protein details: C-terminal His
Pr55Gag = Pr55Gag (UniProt P12493); conditions: ITC at 30 C in TBS with 1 mM TCEP (pH not stated); 8 uM (6-10) protein in cell, 40 uM (15-50) nucleic acid in syringe; one-site model; recombinant protein; residues 1-500; protein details: C-terminal His

Measured: binding result

GAGAAGAGAAGAGAAGAGAA [4x 5'-GAGAA-3' (A-containing)]
binds: p7NC | p15NC-SP2-p6

AAGGAAAGGAAAGGAAAGGA [4x 5'-AAGGA-3' (A-containing)]
binds: p7NC | Pr50GagΔp6 | p15NC-SP2-p6

UGUGGUGUGGUGUGGUGUGG [4x 5'-UGUGG-3' (GU-containing)]
binds: all assays above
